Laboratory results: EP2096114A1, “Insecticidal Derivates of Substituted Phosphorylated Phenylalkyl Iminooxazolines and Iminothiazolines” (dated 2009)

Assay: lgP (HCOOH) determination
Conditions: values for two diastereomers: first printed value, or the only value where one is printed

SMILES	logP(HCOOH)
CCCSP(=S)(OCC)N1CCOC1=NC(C)c1cccc(F)c1 (centres unmarked)	logP(HCOOH)*=2.44
CCCSP(=S)(OCC)N1CCOC1=NC(C)c1cc(F)cc(F)c1 (centres unmarked)	logP(HCOOH)*=3.10
